# “And” between values parts separate entries of the source, which are not always exact repeats. Identical values can stand only once.
# Target: recombinant A(H1N1)pdm09 PAN E23G (Influenza A virus, UniProt C3W5S0, DEL51-57/DEL61-72/E23G/E59G)
# Experiment: Modified thermofluor assay, BXA-rPAN thermal stabilization
# Details: for SYPRO Orange signal: 37uM BXA
smiles,measurement,setting,value
O=C1c2c(O)c(=O)ccn2N([C@@H]2c3ccccc3SCc3c2ccc(F)c3F)[C@@H]2COCCN12,SYPRO Orange signal,30 °C,10458.6 RFU and 10802.3 RFU and 9705.67 RFU
same,SYPRO Orange signal,31 °C,10908.1 RFU and 11315.3 RFU and 9849.1 RFU
same,SYPRO Orange signal,32 °C,11051 RFU and 11753.3 RFU and 10442.9 RFU
same,SYPRO Orange signal,33 °C,11109.2 RFU and 11797.6 RFU and 10595 RFU
same,SYPRO Orange signal,34 °C,11875.6 RFU and 11710 RFU and 11644.9 RFU
same,SYPRO Orange signal,35 °C,12461.9 RFU and 11871.8 RFU and 11604.2 RFU
same,SYPRO Orange signal,36 °C,12266 RFU and 11981.8 RFU and 11480.6 RFU
same,SYPRO Orange signal,37 °C,12699.9 RFU and 12213.9 RFU and 11760.1 RFU
same,SYPRO Orange signal,38 °C,12009.8 RFU and 11767.7 RFU and 11591.2 RFU
same,SYPRO Orange signal,39 °C,11764.1 RFU and 12086 RFU and 11749.7 RFU
same,SYPRO Orange signal,40 °C,11829.9 RFU and 11723.1 RFU and 12006.4 RFU
same,SYPRO Orange signal,41 °C,11905.7 RFU and 12013.1 RFU and 11760.3 RFU
same,SYPRO Orange signal,42 °C,12222.1 RFU and 11702 RFU and 11895.1 RFU
same,SYPRO Orange signal,43 °C,12328.5 RFU and 12349.6 RFU and 11431.8 RFU
same,SYPRO Orange signal,44 °C,11940.1 RFU and 12036.8 RFU and 11250.2 RFU
same,SYPRO Orange signal,45 °C,11722 RFU and 12194 RFU and 11517.2 RFU
same,SYPRO Orange signal,46 °C,11846.4 RFU and 12595 RFU and 11862.3 RFU
same,SYPRO Orange signal,47 °C,12267.5 RFU and 12636.6 RFU and 11943.9 RFU
same,SYPRO Orange signal,48 °C,12316.5 RFU and 13103.6 RFU and 12158 RFU
same,SYPRO Orange signal,49 °C,12462 RFU and 13412 RFU and 11917.8 RFU
same,SYPRO Orange signal,50 °C,12398.7 RFU and 13609.5 RFU and 12138.9 RFU
same,SYPRO Orange signal,51 °C,12905.9 RFU and 13855.7 RFU and 12166.3 RFU
same,SYPRO Orange signal,52 °C,13016.6 RFU and 13797.2 RFU and 12064.3 RFU
same,SYPRO Orange signal,53 °C,12958.2 RFU and 13808 RFU and 11956.7 RFU
same,SYPRO Orange signal,54 °C,12744.2 RFU and 13945 RFU and 12022.8 RFU
same,SYPRO Orange signal,55 °C,13066.8 RFU and 14197.7 RFU and 12314 RFU
same,SYPRO Orange signal,56 °C,13349.2 RFU and 14428.6 RFU and 12371 RFU
same,SYPRO Orange signal,57 °C,13820.6 RFU and 14300.8 RFU and 12565.4 RFU
same,SYPRO Orange signal,58 °C,13762.4 RFU and 14677.4 RFU and 12603.2 RFU
same,SYPRO Orange signal,59 °C,13980.7 RFU and 15526.4 RFU and 12994.8 RFU
same,SYPRO Orange signal,60 °C,13970.3 RFU and 15543.5 RFU and 12819.5 RFU
same,SYPRO Orange signal,61 °C,14242.9 RFU and 15468.2 RFU and 12797.3 RFU
same,SYPRO Orange signal,62 °C,14021.1 RFU and 15976.1 RFU and 13547.6 RFU
same,SYPRO Orange signal,63 °C,14521.4 RFU and 16694.9 RFU and 13339.6 RFU
same,SYPRO Orange signal,64 °C,15307.2 RFU and 17825.7 RFU and 14343.9 RFU
same,SYPRO Orange signal,65 °C,16129.8 RFU and 18625.3 RFU and 14560.6 RFU
same,SYPRO Orange signal,66 °C,16257.7 RFU and 19875.6 RFU and 15467.2 RFU
same,Tm (°C) with BXA,"A(H1N1)pdm09 PAN E23G 2 μM, BXA 37 μM",76 °C and 76.0 ± 0.1 °C
same,ΔTm (°C),"A(H1N1)pdm09 PAN E23G, DMSO vs BXA 37 μM",23.1 ± 0.3 °C
same,SYPRO Orange signal,"Panel A, E23G, 67 °C",17554.3 RFU and 21131.6 RFU and 16645 RFU
same,SYPRO Orange signal,"Panel A, E23G, 68 °C",18515.2 RFU and 22200.8 RFU and 18408.1 RFU
same,SYPRO Orange signal,"Panel A, E23G, 69 °C",19220.1 RFU and 23669.8 RFU and 19731.4 RFU
same,SYPRO Orange signal,"Panel A, E23G, 70 °C",20383.4 RFU and 24941.5 RFU and 20685.3 RFU
same,SYPRO Orange signal,"Panel A, E23G, 71 °C",22540.5 RFU and 26133.5 RFU and 22626.2 RFU
same,SYPRO Orange signal,"Panel A, E23G, 72 °C",25470.5 RFU and 28579.7 RFU and 25185.7 RFU
same,SYPRO Orange signal,"Panel A, E23G, 73 °C",31873.5 RFU and 35905.8 RFU and 32061.2 RFU
same,SYPRO Orange signal,"Panel A, E23G, 74 °C",45292.2 RFU and 50174.9 RFU and 44675.6 RFU
same,SYPRO Orange signal,"Panel A, E23G, 75 °C",68475.2 RFU and 75516.3 RFU and 67310.1 RFU
same,SYPRO Orange signal,"Panel A, E23G, 76 °C",104853 RFU and 113188 RFU and 102292 RFU
same,SYPRO Orange signal,"Panel A, E23G, 77 °C",149989 RFU and 159075 RFU and 146651 RFU
same,SYPRO Orange signal,"Panel A, E23G, 78 °C",189742 RFU and 197904 RFU and 186592 RFU
same,SYPRO Orange signal,"Panel A, E23G, 79 °C",212787 RFU and 217414 RFU and 209934 RFU
same,SYPRO Orange signal,"Panel A, E23G, 80 °C",220286 RFU and 224449 RFU and 218367 RFU
same,SYPRO Orange signal,"Panel A, E23G, 81 °C",220094 RFU and 222208 RFU and 217303 RFU
same,SYPRO Orange signal,"Panel A, E23G, 82 °C",215136 RFU and 217076 RFU and 213878 RFU
same,SYPRO Orange signal,"Panel A, E23G, 83 °C",211339 RFU and 212409 RFU and 210113 RFU
same,SYPRO Orange signal,"Panel A, E23G, 84 °C",206268 RFU and 207691 RFU and 205828 RFU
same,SYPRO Orange signal,"Panel A, E23G, 85 °C",200786 RFU and 203730 RFU and 200512 RFU
same,SYPRO Orange signal,"Panel A, E23G, 86 °C",195141 RFU and 204418 RFU and 195689 RFU
same,SYPRO Orange signal,"Panel A, E23G, 87 °C",188066 RFU and 207015 RFU and 191621 RFU
same,SYPRO Orange signal,"Panel A, E23G, 88 °C",183863 RFU and 199446 RFU and 186050 RFU
same,SYPRO Orange signal,"Panel A, E23G, 89 °C",177710 RFU and 188123 RFU and 180819 RFU
same,SYPRO Orange signal,"Panel A, E23G, 90 °C",171586 RFU and 182456 RFU and 176246 RFU
same,SYPRO Orange signal,"Panel A, E23G, 91 °C",163514 RFU and 178817 RFU and 172008 RFU
same,SYPRO Orange signal,"Panel A, E23G, 92 °C",159610 RFU and 173319 RFU and 166826 RFU
same,SYPRO Orange signal,"Panel A, E23G, 93 °C",151215 RFU and 165739 RFU and 161512 RFU
same,SYPRO Orange signal,"Panel A, E23G, 94 °C",148685 RFU and 156746 RFU and 157154 RFU
same,SYPRO Orange signal,"Panel A, E23G, 95 °C",141997 RFU and 152694 RFU and 151570 RFU
same,SYPRO Orange signal,"Panel A, E23G, 96 °C",136709 RFU and 149275 RFU and 145739 RFU
same,SYPRO Orange signal,"Panel A, E23G, 97 °C",134511 RFU and 143908 RFU and 140967 RFU

# Source: publication PMC9312377
